Here are results for 1 substance from publication PMC8546121, “Structure of Machupo virus polymerase in complex with matrix protein Z” (2021).

The target in this assay is Machupo virus (MACV) L protein (Machupo virus) (UniProt Q6IUF8). As to the kind of experiment: cryo-EM structure.

What is called stoichiometry N is a count of units in the complex or per binding partner.

Take “Machupo virus (MACV) L protein, Q6IUF8 1-2209”: the stoichiometry N was determined as 2.
